Measurements as given in patent publication US6866854 (TRUSTEES OF COLUMBIA UNIVERSITY IN THE CITY OF NEW YORK, dated 2005).

Biological target: T1, Kaposi's sarcoma-associated herpesvirus latency-associated nuclear antigen 2 (LANA2) (Kaposi's sarcoma-associated herpesvirus …)
T1 construct: also called protein encoded by ORFK10.5; K10.5
Test: GST pull-down with in vitro translated 35S-methionine-labeled LANA2

B1: GST protein alone (other, UniProt P08515 1-218, looked up)
chain: MSPILGYWKIKGLVQPTRLLLEYLEEKYEEHLYERDEGDKWRNKKFELGLEFPNLPYYIDGDVKLTQSMAIIRYIADKHNMLGGCPKERAEISMLEGAVLDIRYGVSRIAYSKDFETLKVDFLSKLPEMLKMFEDRLCHKTYLNGDHVTHPDFMLYDALDVVLYMDPMCLDAFPKLVCFKKRIEAIPQIDKYLKSSKYIAWPLQGWQATFGGGDHPPK
notes: also called GST alone; glutathione-S-transferase
  binding result: no binding
